Results of unrelated studies side by side (data: NIAID ChemDB).

Shared fields: enzyme or target tests

Inhibition is in % at the dose shown (toxicity tests: loss of growth or viability). Lines come from different laboratories, so protocols vary. Fold resistance: result on the changed form divided by that on wild type. ICn is the concentration giving n% inhibition. a–b is a range or a potency band. An empty or dashed field is not shown.

smiles	strain	dose	target	changes	method	species	endpoint	result
O=C(O)C(O)P(=O)(O)O			DNA polymerase			Duck hepatitis B virus	IC50	>100 µM
O=S(=O)(F)Cc1ccccc1			Aminopeptidase			Cryptosporidium parvum	IC50	>1000 µM
N#Cc1ccc(C(=O)Nc2nnc(NCCc3cccs3)s2)cc1			Polymerase			Human cytomegalovirus	IC50	<25 µM
CC(CCC(C(=O)O)P(=O)(O)O)CC(C)(C)C			DNA polymerase			Duck hepatitis B virus	IC50	>100 µM
Cn1c(=O)c2[nH]c(=O)[nH]c2n(C)c1=O	RH		Phosphoribosyltransferase			Toxoplasma gondii	IC50	>900 µM
CC(C)=CCOc1cc(NC(=S)c2ccoc2C)ccc1Cl			Reverse transcriptase	RT-P140A	nucleotide incorporation / radiometric	HIV	IC50	0.045 µM
Nc1ccc(S(=O)(=O)c2ccc(N)cc2)cc1			DHPS			Pneumocystis carinii	IC50	0.15 µM
CCO[C@@]12CC3=COC=CC(OC(C)=O)C3N1C(=O)[C@]1(S)CC3=COC=CC(OC(C)=O)C3N1C2=O	TYPE A21		RNA polymerase			Coxsackie virus	IC50	5.8 µg/mL
COc1cc(NS(=O)(=O)c2ccc(N)cc2)ncn1			DHPS			Pneumocystis carinii	IC50	0.054 µM
CCC(CC)Nc1cc(C(=O)O)ccc1N1C(=O)CCC1(CN)CO	Subtype N1		Neuraminidase			Influenza A virus	IC50	0.88 µM
Nc1nc2c(ncn2[C@H]2CC[C@@H](COP(=O)(O)OP(=O)(O)OP(=O)(O)O)O2)c(=O)[nH]1			Reverse transcriptase	RT-N137E	nucleotide incorporation / radiometric	HIV	IC50	0.083 µM
CC(=O)OC1C=COC=C2C[C@@H]3C(=O)N4C5C(=COC=CC5OC(C)=O)C[C@H]4C(=O)N3C21	TYPE A21		RNA polymerase			Coxsackie virus	IC50	20 µg/mL
Cc1cnccn1	RH	2000 µM	Uracil phosphoribosyltransferase			Toxoplasma gondii	inhibition	<5%
COc1cc(CNc2ccc3nc(N)nc(N)c3c2Cl)cc(OC)c1OC			Dihydrofolate reductase			Cryptosporidium parvum	IC50	3.75 µM
O=C(OC[C@H]1O[C@@H](n2cnc3c(=O)[nH]cnc32)[C@H](O)[C@@H]1O)c1ccc(S(=O)(=O)F)cc1		300 µM	NTPase/helicase			West Nile virus	inhibition	14%
CC(C)[C@H](NC(=O)c1ccc2ccccc2n1)C(=O)N[C@@H](Cc1ccccc1)[C@H](O)CN1CC[C@@H](SCc2cccnc2)C[C@H]1C(=O)NC(C)(C)C			Protease	PR-V32I A71V	fluorescence	HIV	Ki	0.000045 µM
CC(=O)Nc1ccc(S(=O)(=O)Nc2ccc3oc(=O)[nH]c3c2)cc1			DHPS			Pneumocystis carinii	IC50	>10 µM
O=c1ccn(Cc2ccccc2)c(=O)[nH]1	RH	2000 µM	Uracil phosphoribosyltransferase			Toxoplasma gondii	inhibition	<5%
O=C(O)C(CCCC1CCCCC1)P(=O)(O)O			DNA polymerase			Duck hepatitis B virus	IC50	>100 µM
COc1cccc2c1C(=O)c1c(O)c3c(c(O)c1C2=O)C[C@@](O)(C(C)=O)C[C@@H]3O[C@H]1C[C@H](N)[C@H](O)[C@H](C)O1			NTPase/helicase			West Nile virus	IC50	120 µM
C=CCN(C(=O)CC1CCCC1)c1cc(-c2ccccc2)sc1C(=O)O			NS3 ATPase			Hepatitis C virus	IC50	<5 µM
CN1C(=O)[C@]23CC4=CC=C[C@H](O)[C@H]4N2C(=O)[C@@]1(CO)S3	TYPE A21		RNA polymerase			Coxsackie virus	IC50	0.002 µg/mL
CO[P@](=O)(c1cc(C)cc(/C=C/C#N)c1)c1c(C(N)=O)[nH]c2ccc(Cl)c(F)c12			Reverse transcriptase	V108I		HIV	IC50	1.2 µM
CC[C@H]1C(=O)Nc2ccc(F)cc2N1C(=O)OC(C)C			Reverse transcriptase	RT-N137S	nucleotide incorporation / radiometric	HIV	fold resistance	1.8
CCOC(=O)OC1C=COC=C2C[C@@]34SS[C@]5(CC6=COC=CC(OC(=O)OCC)C6N5C3=O)C(=O)N4C21	TYPE A21		RNA polymerase			Coxsackie virus	IC50	0.08 µg/mL
CN1CNc2[nH]c(=O)[nH]c(=O)c21	RH		Phosphoribosyltransferase			Toxoplasma gondii	Ki	5700 µM
CCCc1cc(=O)[nH]c(=S)[nH]1	RH		Uracil phosphoribosyltransferase			Toxoplasma gondii	Ki	1700 µM
Nc1ccc(S(=O)(=O)NC(=O)c2ccccc2)cc1			DHPS			Pneumocystis carinii	IC50	0.32 µM
O=C1N2C3C(=COC=CC3O)C[C@]23SSSS[C@]12CC1=COC=CC(O)C1N2C3=O	TYPE A21		RNA polymerase			Coxsackie virus	IC50	0.0001 µg/mL
O=C(Nc1nnc(NCc2cccs2)s1)c1ccc2c(c1)C(=O)OC2=O			Polymerase			Human cytomegalovirus	IC50	<25 µM
O=C(O)c1c[nH]c(=S)[nH]c1=O	RH		Uracil phosphoribosyltransferase			Toxoplasma gondii	Ki	1100 µM
COc1cc(C)c(S(=O)(=O)N2CC(C)=CCC2C(=O)N(c2cc(-c3ccccc3)sc2C(=O)O)C(C)C)c(C)c1C			NS3 ATPase			Hepatitis C virus	IC50	5–20 µM
N#[N+]c1c[nH]c(=O)[nH]c1=O	RH		Uracil phosphoribosyltransferase			Toxoplasma gondii	Ki	1300 µM
Cc1cccc(C)c1OCC(=O)N[C@@H](Cc1ccccc1)[C@H](O)CN1CC[C@@H](Sc2ccncc2)C[C@H]1C(=O)NC(C)(C)C			Protease	PR-L10I L23I M46I I84V	fluorescence	HIV	fold resistance	35.8
Cc1nc(NS(=O)(=O)c2ccc(N)cc2)oc1C			DHPS			Pneumocystis carinii	IC50	0.089 µM
CCCCCCCC/C=C/CCCCCCCC(=O)Nc1nnc(NCCC(=O)OC(C)(C)C)s1			Polymerase			Human cytomegalovirus	IC50	<25 µM
CC(N)CB(O)O		0.001 µM	Aminopeptidase			Cryptosporidium parvum	inhibition	88%
CCCCCCCCCCCC(C(=O)O)P(=O)(O)O			DNA polymerase			Duck hepatitis B virus	IC50	>100 µM
Cc1cc(C)nc(/N=C(\N)Nc2ccc(S(=O)(=O)NC(=O)Nc3ccccc3)cc2)n1			DHPS			Pneumocystis carinii	IC50	>10 µM
CCC(CC)Nc1cc(C(=O)O)ccc1N1C(=O)CCC1(CO)CCN	Subtype N1		Neuraminidase			Influenza A virus	IC50	180 µM
O=C(O)c1sc(-c2ccccc2)cc1N(C(=O)c1ccc(Cl)cc1Cl)C1CCCNC1			NS3 ATPase			Hepatitis C virus	IC50	<5 µM
NS(=O)(=O)c1nc[nH]c1[N+](=O)[O-]	RH		Phosphoribosyltransferase			Toxoplasma gondii	IC50	>900 µM
COc1ccc(CC2CCc3nc(N)nc(N)c3C2)cc1			Dihydrofolate reductase			Cryptosporidium parvum	IC50	0.36 µM
OB(O)C1CCCN1		0.001 µM	Aminopeptidase			Cryptosporidium parvum	inhibition	36%
Nc1nc(=S)c2[nH]cnc2[nH]1	RH		Phosphoribosyltransferase			Toxoplasma gondii	Ki	2 µM
Nc1nc(N)c2nc(CN3c4ccccc4Cc4ccccc43)cnc2n1			Dihydrofolate reductase			Cryptosporidium parvum	IC50	>10 µM
O=C(O)c1sc(-c2ccccc2)cc1NS(=O)(=O)c1ccc(C(F)(F)F)cc1			NS3 ATPase			Hepatitis C virus	IC50	<5 µM
NC(=S)NS(=O)(=O)c1ccc(N)cc1			DHPS			Pneumocystis carinii	Ki	0.0165 µM
COc1cc(CN(C)c2ccc3nc(N)nc(N)c3c2Cl)cc(OC)c1OC			Dihydrofolate reductase			Cryptosporidium parvum	IC50	0.78 µM
O=C1CC=Cc2[nH]ccc21	RH	900 µM	Phosphoribosyltransferase			Toxoplasma gondii	inhibition	<10%
Cc1cc(Cl)ccc1S(=O)(=O)Nc1cc(-c2ccccc2)sc1C(=O)O			NS3 ATPase			Hepatitis C virus	IC50	<5 µM
CCCCn1c(=O)cc[nH]c1=O	RH		Uracil phosphoribosyltransferase			Toxoplasma gondii	IC50	>2000 µM
O=C(O)c1sc(-c2ccccc2)cc1NS(=O)(=O)c1ccccc1			NS3 ATPase			Hepatitis C virus	IC50	5–20 µM
CSS[C@@]12CC3=COC=CC(OC(C)=O)C3N1C(=O)[C@]1(SSC)CC3=COC=CC(OC(C)=O)C3N1C2=O	TYPE A21		RNA polymerase			Coxsackie virus	IC50	0.07 µg/mL
COC(=O)C1c2cc3c(c(O)c2C(O)CC1(C)O)C(=O)c1c(O)cc2c(c1C3=O)OC1OC2(C)C(O)C(N(C)C)C1O			NTPase/helicase			Dengue virus	IC50	>650 µM
Nc1ncnc2c1ncn2[C@@H]1O[C@H](COC(=O)c2ccc(S(=O)(=O)F)cc2)[C@@H](O)[C@H]1O		300 µM	NTPase/helicase			West Nile virus	inhibition	16%
CCCCCCCC/C=C/CCCCCCCC(=O)Nc1nnc(NCc2cccnc2)s1			Polymerase			Human cytomegalovirus	IC50	<25 µM
CCCCC(N)B(O)O		0.001 µM	Aminopeptidase			Cryptosporidium parvum	inhibition	96%

7 of the rows above, restated:

smiles | strain | dose | target | changes | method | species | endpoint | result
CCCCCCCC/C=C/CCCCCCCC(=O)Nc1nnc(NCCC(=O)OC(C)(C)C)s1 |  |  | Polymerase |  |  | Human cytomegalovirus | IC50 | <25 µM
Nc1nc2c(ncn2[C@H]2CC[C@@H](COP(=O)(O)OP(=O)(O)OP(=O)(O)O)O2)c(=O)[nH]1 |  |  | Reverse transcriptase | RT-N137E | nucleotide incorporation / radiometric | HIV | IC50 | 0.083 µM
Nc1ncnc2c1ncn2[C@@H]1O[C@H](COC(=O)c2ccc(S(=O)(=O)F)cc2)[C@@H](O)[C@H]1O |  | 300 µM | NTPase/helicase |  |  | West Nile virus | inhibition | 16%
COc1ccc(CC2CCc3nc(N)nc(N)c3C2)cc1 |  |  | Dihydrofolate reductase |  |  | Cryptosporidium parvum | IC50 | 0.36 µM
COc1cc(CN(C)c2ccc3nc(N)nc(N)c3c2Cl)cc(OC)c1OC |  |  | Dihydrofolate reductase |  |  | Cryptosporidium parvum | IC50 | 0.78 µM
Nc1ccc(S(=O)(=O)c2ccc(N)cc2)cc1 |  |  | DHPS |  |  | Pneumocystis carinii | IC50 | 0.15 µM
Cc1cc(C)nc(/N=C(\N)Nc2ccc(S(=O)(=O)NC(=O)Nc3ccccc3)cc2)n1 |  |  | DHPS |  |  | Pneumocystis carinii | IC50 | >10 µM